Protein sequences, listed by entry. Tags and fused reporters are not part of them. Residues count along the entry.
UniProt Q15303, 26-1308: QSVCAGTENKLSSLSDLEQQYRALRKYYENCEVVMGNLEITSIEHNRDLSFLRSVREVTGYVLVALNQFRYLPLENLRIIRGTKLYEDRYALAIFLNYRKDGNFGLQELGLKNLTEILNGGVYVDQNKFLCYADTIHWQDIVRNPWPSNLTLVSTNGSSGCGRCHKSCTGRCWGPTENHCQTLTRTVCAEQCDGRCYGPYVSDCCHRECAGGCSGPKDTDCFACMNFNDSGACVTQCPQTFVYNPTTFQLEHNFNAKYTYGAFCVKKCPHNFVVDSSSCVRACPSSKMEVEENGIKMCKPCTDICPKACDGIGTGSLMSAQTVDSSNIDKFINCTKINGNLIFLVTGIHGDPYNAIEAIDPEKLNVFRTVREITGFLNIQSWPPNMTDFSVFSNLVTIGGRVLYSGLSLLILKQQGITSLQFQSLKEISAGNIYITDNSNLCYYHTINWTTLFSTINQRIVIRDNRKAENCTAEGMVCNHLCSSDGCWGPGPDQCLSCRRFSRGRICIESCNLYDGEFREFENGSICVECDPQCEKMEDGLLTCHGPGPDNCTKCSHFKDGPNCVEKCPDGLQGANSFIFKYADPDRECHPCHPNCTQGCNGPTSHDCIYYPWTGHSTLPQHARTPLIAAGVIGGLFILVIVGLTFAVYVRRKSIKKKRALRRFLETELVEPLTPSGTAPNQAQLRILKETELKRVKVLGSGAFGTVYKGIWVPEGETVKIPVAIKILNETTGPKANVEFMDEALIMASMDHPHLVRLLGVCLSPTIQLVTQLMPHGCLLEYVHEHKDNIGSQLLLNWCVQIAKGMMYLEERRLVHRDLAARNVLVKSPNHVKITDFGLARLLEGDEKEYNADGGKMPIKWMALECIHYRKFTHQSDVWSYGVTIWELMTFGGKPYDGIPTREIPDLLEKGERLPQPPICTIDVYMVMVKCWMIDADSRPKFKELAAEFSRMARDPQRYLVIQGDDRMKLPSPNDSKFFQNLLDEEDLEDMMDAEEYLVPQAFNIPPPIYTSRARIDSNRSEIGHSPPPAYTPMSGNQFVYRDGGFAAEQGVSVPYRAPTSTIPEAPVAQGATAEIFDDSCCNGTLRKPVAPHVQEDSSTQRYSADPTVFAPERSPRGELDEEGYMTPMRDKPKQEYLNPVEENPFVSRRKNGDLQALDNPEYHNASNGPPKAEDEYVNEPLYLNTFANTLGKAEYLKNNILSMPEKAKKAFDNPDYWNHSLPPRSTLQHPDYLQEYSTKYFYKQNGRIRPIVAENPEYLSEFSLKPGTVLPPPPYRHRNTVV

In publication PMC7287781 (Molecules, 2020):

Target: ErbB4 (Homo sapiens, UniProt Q15303)
Details: 1 µM

SMILES: CN(C)C/C=C/C(=O)Nc1cc2c(Nc3ccc(F)c(Cl)c3)ncnc2cc1O[C@H]1CCOC1 [BIBW2992]
- Inhibition Rate(%) / ErbB4: 84.2
